A mixed list of measured activities; the numbers were collected in NIAID ChemDB.

Shared fields: whole-cell or culture tests; agent: Candida albicans; endpoint: MIC100

A number after MIC or MFC names an inhibition level or a share of isolates.

compound	strain or isolate	method	result
O=C1C=C(NCc2ccccc2)C(=O)c2ccccc21	MTCC 3017	broth dilution	250 µg/mL
COc1cc(C[C@H](C)[C@H](C)Cc2ccc(O)c(O)c2)ccc1O	ATCC 10231	broth dilution	62.5 µg/mL
COc1ccc(/C=C2\SC(N(C)C)=NC2=O)cc1	ATCC 10231	broth dilution	>250 µg/mL
O=C1C=C(Nc2cccc(Br)c2)C(=O)c2ccccc21	MTCC 3017	broth dilution	62.5 µg/mL
C[C@@H]1[C@H](O)[C@@H](C)/C=C/C=C/CC/C=C/C=C/C=C/C=C/C(O[C@H]2O[C@H](C)[C@@H](O)[C@H](N)[C@@H]2O)CC2O[C@](O)(CC(O)C(O)CCC(O)CC(O)CC(O)CC(=O)O[C@H]1C)CC(O)C2C(=O)O	ATCC 10231	broth dilution	6.25 µg/mL
Clc1ccccc1C(c1ccccc1)(c1ccccc1)n1ccnc1	-	agar diffusion / agar	7.8 µg/mL
C[C@H]1[C@H](O)[C@@H](C)/C=C/C=C/C=C/C=C/C=C/C=C/C=C/[C@H](O[C@@H]2O[C@H](C)[C@@H](O)[C@H](N)[C@@H]2O)C[C@@H]2O[C@](O)(C[C@@H](O)C[C@@H](O)CC[C@H](O)[C@@H](O)C[C@@H](O)CC(=O)O[C@H]1C)C[C@H](O)[C@H]2C(=O)O	ATCC 10231	broth dilution	0.78 µg/mL
Cc1ccc(C(F)(F)C(F)(F)c2ccc(C(C)(C)N)cc2)cc1	MY1055	-	8 µg/mL
C[C@@H]1[C@H](O)[C@@H](C)/C=C/C=C/CC/C=C/C=C/C=C/C=C/C(O[C@H]2O[C@H](C)[C@@H](O)[C@H](N)[C@@H]2O)CC2O[C@](O)(CC(O)C(O)CCC(O)CC(O)CC(O)CC(=O)O[C@H]1C)CC(O)C2C(=O)O	ATCC 40227	broth dilution	>1024 µg/mL
CC1=C(Nc2ccccc2)C(=O)c2ccccc2C1=O	MTCC 3017	broth dilution	15.6 µg/mL
CN(C/C=C/C#CC(C)(C)C)Cc1cccc2ccccc12	ATCC 10231	broth dilution	>100 µg/mL
O=C1C=C(Nc2ccccc2)C(=O)c2ccccc21	MTCC 3017	broth dilution	15.6 µg/mL
Clc1ccc(COC(Cn2ccnc2)c2ccc(Cl)cc2Cl)c(Cl)c1	ATCC 40277	broth dilution	32 µg/mL
CN(C)C1=NC(=O)/C(=C/c2ccc(F)cc2)S1	ATCC 10231	broth dilution	>250 µg/mL
O=C1C=C(NCCN2CCOCC2)C(=O)c2ccccc21	MTCC 3017	broth dilution	62.5 µg/mL

For reference, 2 entries again:

| compound | strain or isolate | method | result |
|---|---|---|---|
| O=C1C=C(Nc2ccccc2)C(=O)c2ccccc21 | MTCC 3017 | broth dilution | 15.6 µg/mL |
| CN(C)C1=NC(=O)/C(=C/c2ccc(F)cc2)S1 | ATCC 10231 | broth dilution | >250 µg/mL |

Conditions beyond the fields shown may differ between rows. An empty or dashed field is not shown.